Anti-infective test results gathered from many reports (values: NIAID ChemDB through PubChem).

Shared fields: tests in culture; organism: Mycobacterium tuberculosis

An empty or dashed field is not shown.

smiles | changes | read by | strain or isolate | tested at | cell line | read-out | conditions | value
CO[C@H]1/C=C/O[C@@]2(C)Oc3c(C)c(O)c4c(O)c(c(/C=N/N5CCN(C)CC5)c(O)c4c3C2=O)NC(=O)/C(C)=C\C=C\[C@H](C)[C@H](O)[C@@H](C)[C@@H](O)[C@@H](C)[C@H](OC(C)=O)[C@@H]1C | Rifampicin- and isoniazid-resistant | broth dilution | Clinical isolate 15552 | - | - | MIC | - | >10 µM
CCCCCCCCCCCNCCNCc1ccc(OC)c(OC)c1 | - | - | - | - | - | MIC | - | 50 µM
CC(=O)Nc1ccc(/C=N/Nc2nc3ccccc3s2)cc1 | - | BACTEC | H37Rv | - | - | MIC bound | - | >12.5 µg/mL
CO[C@H]1/C=C/O[C@@]2(C)Oc3c(C)c(O)c4c(O)c(c5c(c4c3C2=O)NC2(CCN(CC(C)C)CC2)N=5)=NC(=O)/C(C)=C\C=C\[C@H](C)[C@H](O)[C@@H](C)[C@@H](O)[C@@H](C)[C@H](OC(C)=O)[C@@H]1C | - | - | Strain 79 (H526L) | - | - | MIC | - | 0.063 µg/mL
CCCCC(CC)CN1CN(CC(CC)CCCC)CC(C)(NCCNCc2ccccc2OCC)C1 | - | - | - | - | - | MIC | - | 12.5 µM
C/C=C/C(C1=C(O)c2ccccc2C(=O)C1=O)C1=C(O)c2ccccc2C(=O)C1=O | - | BACTEC | H37Rv | - | - | MIC bound | - | >12.8 µg/mL
CC(CNCC(c1ccccc1)c1ccccc1)NCC12CC3CC(CC(C3)C1)C2 | - | - | - | - | - | MIC | - | 25 µM
C[C@H]1COc2c(N3CCN(C)CC3)c(F)cc3c(=O)c(C(=O)O)cn1c23 | - | - | Isolate 15 | - | - | MIC | - | 0.25 µg/mL
C[C@@H]1CN(c2c(F)c(N)c3c(=O)c(C(=O)O)cn(C4CC4)c3c2F)C[C@H](C)N1 | - | - | ATCC 35823 | - | - | MBC | - | 0.06 µg/mL
COc1ccccc1CCNCCNC(c1ccccc1)c1ccccc1 | - | - | - | - | - | MIC | - | 12.5 µM
Fc1ccc2oc(=S)n(-c3ccc(Br)cc3)c(=S)c2c1 | - | - | My 331/88 | - | - | MIC | 14 d | 1 µM
Cc1cnc(N)c(C(=O)O)n1 | - | BACTEC | H37Rv | - | - | MIC | - | ≥12.5 µg/mL
NCC[C@H](O)C(=O)N[C@@H]1C[C@H](N)[C@@H](O[C@H]2O[C@H](CN)[C@@H](O)[C@H](O)[C@H]2O)[C@H](O)[C@H]1O[C@H]1O[C@H](CO)[C@@H](O)[C@H](N)[C@H]1O | - | - | 8R | - | - | MIC | - | 2.5 µg/mL
NC(=O)c1cnccn1 | - | - | Isolate W5457 | - | - | MIC | - | >900 µg/mL
C=CCNCCNC(C)CO | - | - | - | - | - | MIC | - | 50 µM
CCOC(=O)Nc1cc(N=[N+]=[N-])c2n[nH]nc2n1 | - | - | H37Rv | - | - | EC50 | - | >12.5 µg/mL
COC(=O)C1CC(=O)N(C)c2sc(C)c(C)c2C1=O | - | BACTEC | H37Rv | 12.5 µg/mL | - | inhibition | - | -4%
CC[C@H]1OC(=O)[C@H](C)[C@@H](O[C@H]2C[C@@](C)(OC)[C@@H](O)[C@H](C)O2)[C@H](C)[C@@H](O[C@@H]2O[C@H](C)C[C@H](N(C)C)[C@H]2O)[C@](C)(O)C[C@@H](C)C(=O)[C@H](C)[C@@H](O)[C@]1(C)O | - | - | ATCC 35823 | - | - | MBC | - | >8 µg/mL
O=c1oc2ccc(F)cc2c(=S)n1-c1ccc(Br)cc1 | - | - | My 331/88 | - | - | MIC | 21 d | 2 µM
COc1ccc(C2CC(=O)c3ccc(OC)cc3O2)cc1 | - | - | - | 12.5 µg/mL | - | inhibition | - | 0%
CC(C)N.CC(C)NC(=S)S | - | BACTEC | H37Rv | - | - | MIC bound | - | >12.5 µg/mL
NC[C@H]1O[C@H](O[C@H]2[C@H](O)[C@@H](O[C@H]3O[C@H](CO)[C@@H](O)[C@H](N)[C@H]3O)[C@H](N)C[C@@H]2N)[C@H](O)[C@@H](O)[C@@H]1O | - | - | Isolate 7 | - | - | MIC | - | >128 µg/mL
C#CCNC1=C(C)C(=O)C2=C(C1=O)[C@@H](COC(N)=O)[C@@]1(OC)[C@H]3N[C@H]3CN21 | - | BACTEC | H37Rv | - | - | MIC bound | - | ≤12.5 µg/mL
C[C@@H]1CN(c2c(F)c(N)c3c(=O)c(C(=O)O)cn(C4CC4)c3c2F)C[C@H](C)N1 | - | - | Isolate 13 | - | - | MIC | - | 0.13 µg/mL
C=CC(C)(O)/C=C/C=C(\C)C(CC1OC1(C)C)OC(=O)/C(C)=C/C | - | BACTEC | H37Rv | - | - | MIC | - | ≥12.5 µg/mL
CCOC(=O)Nc1cc(NCCC(O)c2ccccc2)c([N+](=O)[O-])c(N)n1 | - | - | H37Rv | - | - | EC50 | - | >12.5 µg/mL
OCc1ccccc1Sc1ccccc1CNCCNCc1cccc(F)c1 | - | - | - | - | - | MIC | - | 25 µM
CC1CN(c2cc3c(cc2F)c(=O)c(C(=O)O)cn3-c2ccc(F)cc2F)CCN1 | - | - | ATCC 35828 | - | - | MBC | - | 2 µg/mL
C[C@@H]1[C@H]2C[C@@H](C[C@H]1NCCNC[C@@H]1CC[C@H]3C[C@@H]1C3(C)C)C2(C)C | - | - | - | - | - | MIC | - | 3.13 µM
COc1ccccc1/C=C/C(=O)c1ccccc1O | - | - | H37Rv | 12.5 µg/mL | - | inhibition | - | 39%
C/C=C/C=C1\C=Cc2c(C(=O)OC)coc(=O)c21 | - | BACTEC | H37Rv | 12.5 µg/mL | - | inhibition | - | 10%
Cc1ccc2oc(=O)n(-c3ccc(C(F)(F)F)cc3)c(=S)c2c1 | - | - | My 331/88 | - | - | MIC | 21 d | 8 µM
C=C(NC(=O)c1csc(-c2nc3c(cc2O)-c2nc(cs2)C(=O)N[C@@H]([C@@H](C)O)C(=O)N/C(=C(\C)OC)c2nc(cs2)C(=O)N[C@@H]2c4nc(cs4)C(=O)N[C@@H](COC(=O)c4c5c6c(cccc6n4O)COC(=O)[C@@H](O[C@H]4C[C@]6(C)OCN(C)[C@@H]6[C@H](C)O4)[C@H]2OC5)c2nc-3cs2)n1)C(N)=O | Multidrug-resistant | broth dilution | Clinical isolate 565 | - | - | MIC | - | 10–100 µM
CCOC(=O)Nc1cc(NCCc2ccc(S(=O)(=O)N(CC)CC)cc2)c2ncc(C)nc2n1 | - | - | H37Rv | - | - | EC50 | - | >12.5 µg/mL
Cc1[nH]c2ccc(N(C)C)cc2c(=O)c1CN1CCOCC1 | - | BACTEC | H37Rv | - | - | MIC bound | - | >12.5 µg/mL
C[C@H]1COc2c(N3CCN(C)CC3)c(F)cc3c(=O)c(C(=O)O)cn1c23 | - | - | ATCC35838 | - | - | MBC | - | 0.25 µg/mL
NC(N)=NS(=O)(=O)c1ccc(N2C(=O)CC3(CCCC3)C2=O)cc1 | - | BACTEC | H37Rv | 12.5 µg/mL | - | inhibition | - | 12%
O=C(O)c1ccc2c(c1)C(=O)CC(c1ccccc1)O2 | - | - | H37Rv | 12.5 µg/mL | - | inhibition | - | 0%
S=C(NCc1ccccc1)[S][Sn]([S]C(=S)NCc1ccccc1)([c]1ccccc1)[c]1ccccc1 | - | BACTEC | H37Rv | - | - | MIC | - | 32 µg/mL
NNC(=O)c1ccncc1 | - | broth dilution | Clinical isolate 12556 | - | - | MIC | - | ≤0.2 µM
CCCCCCCCCCCNCCNCc1ccccc1Sc1ccccc1CO | - | - | - | - | - | MIC | - | 25 µM
C[C@H]1COc2c(N3CCN(C)CC3)c(F)cc3c(=O)c(C(=O)O)cn1c23 | - | resazurin | Clinical isolate BRF 27 | - | - | MIC | - | 0.5 µg/mL
O=C(/C=C/c1ccco1)c1ccc(Br)cc1O | - | - | H37Rv | 12.5 µg/mL | - | inhibition | - | 17%
COc1c(N2C[C@@H]3CCCN[C@@H]3C2)c(F)cc2c(=O)c(C(=O)O)cn(C3CC3)c12 | - | - | Strain 474 | - | - | MIC | - | 0.06 µg/mL
CC(C)c1ccc2c(c1)CC[C@H]1[C@](C)(CNCCNCCC(c3ccccc3)c3ccccc3)CCC[C@]21C | - | - | - | - | - | MIC | - | 12.5 µM
CO[C@H]1/C=C/O[C@@]2(C)Oc3c(C)c(O)c4c(O)c(c(/C=N/N5CCN(C)CC5)c(O)c4c3C2=O)NC(=O)/C(C)=C\C=C\[C@H](C)[C@H](O)[C@@H](C)[C@@H](O)[C@@H](C)[C@H](OC(C)=O)[C@@H]1C | - | - | 6S | - | - | MIC | - | 1 µg/mL
C=C(NC(=O)c1csc(-c2nc3c(cc2O)-c2nc(cs2)C(=O)N[C@@H]([C@@H](C)O)C(=O)N/C(=C(\C)OC)c2nc(cs2)C(=O)N[C@@H]2c4nc(cs4)C(=O)N[C@@H](COC(=O)c4c5c6c(cccc6n4O)COC(=O)[C@@H](O[C@H]4C[C@](C)(O)[C@H](N(C)C)[C@H](C)O4)[C@H]2OC5)c2nc-3cs2)n1)C(N)=O | Rifampicin- and isoniazid-resistant | broth dilution | Clinical isolate 18460 | - | - | MIC | - | ≤2.5 µM
Cc1ccc2oc(=S)n(-c3ccccc3)c(=S)c2c1 | - | - | My 331/88 | - | - | MIC | 14 d | 0.5 µM
CC(=O)Nc1nnc(-c2coc3ccccc3c2=O)s1 | - | BACTEC | H37Rv | - | - | MIC bound | - | >12.5 µg/mL
CC(C)=CCC/C(C)=C/CNCCN[C@H]1C[C@H]2CC[C@]1(C)C2(C)C | - | - | - | - | - | MIC | - | 12.5 µM
CN[C@@H]1[C@H](O[C@H]2[C@H](O[C@H]3[C@H](O)[C@@H](O)[C@H](N=C(N)N)[C@@H](O)[C@@H]3N=C(N)N)O[C@@H](C)[C@]2(O)C=O)O[C@@H](CO)[C@H](O)[C@H]1O | - | - | 9127 | - | - | MIC | - | ≥2 µg/mL
CC(C)NNC(=O)C(N)CCC(=O)O | - | BACTEC | H37Rv | 12.5 µg/mL | - | inhibition | - | -18%
CC1COc2c(N3CCN(C)CC3)c(F)cc3c(=O)c(C(=O)O)cn1c23 | - | - | ATCC 35826 | - | - | MBC | - | 1 µg/mL
CCOC(=O)Nc1cc(NC(O)CCCN(CC)CC)c2ncc(-c3cc(OC)c(OC)c(OC)c3)nc2n1 | - | - | H37Rv | 12.5 µg/mL | - | inhibition | - | 40%
CCCCNC1=C(C(=O)OCC)/C(=N/NC(=O)c2ccccc2O)CO1 | - | BACTEC | H37Rv | - | - | MIC bound | - | >12.5 µg/mL
NNC(=O)c1ccncc1 | - | - | 41494 | - | - | MIC | - | ≥0.2 µg/mL
CC12CCC(NC(=O)C3CCCN3C(=O)OCc3ccccc3)CC1CCC1C2CCC2(C)C(NC(=O)C3CCCN3C(=O)OCc3ccccc3)CCC12 | - | BACTEC | H37Rv | - | - | MIC bound | - | >12.5 µg/mL
CC(=O)NC[C@H]1CN(c2ccc(N3CCOCC3)c(F)c2)C(=O)O1 | - | - | Strain 34 | - | - | MIC | - | 0.25 µg/mL
COc1ccc(/C=C/C(=O)c2ccc(Cl)cc2O)cc1 | - | - | H37Rv | - | - | EC50 | - | <12.5 µg/mL
CCOC(=O)Nc1cc2ncc(CN(C)c3ccc(C(=O)OC)cc3)nc2c(N)n1 | - | - | H37Rv | - | - | EC50 | - | >12.5 µg/mL
O=c1cc(-c2ccc(Oc3c(O)cc4oc(-c5ccc(O)cc5)cc(=O)c4c3O)cc2)oc2cc(O)cc(O)c12 | - | - | - | - | - | EC50 | - | >12.5 µg/mL
O=C(N/N=C/c1ccccc1)c1nn[nH]n1 | - | BACTEC | H37Rv | 12.5 µg/mL | - | inhibition | - | 22%
C(CNCC12CC3CC(CC(C3)C1)C2)NCC12CC3CC(CC(C3)C1)C2 | - | - | - | - | - | MIC | - | 9.4 µM
Nc1ccccc1/C=C/C(=O)c1cc(Br)ccc1O | - | - | - | 12.5 µg/mL | - | inhibition | - | 8%
FC(F)(F)c1ccc(CNCCNCCCCc2ccccc2)cc1 | - | - | - | - | - | MIC | - | 25 µM
Nc1ncnc2c1ncn2[C@@H]1O[C@H](COP(=O)(O)O)[C@@H](O)[C@H]1O | - | BACTEC | H37Rv | 12.5 µg/mL | - | inhibition | - | -14%
CO[C@H]1/C=C/O[C@@]2(C)Oc3c(C)c(O)c4c(=O)c(c5oc6cc(N7CCN(CC(C)C)CC7)cc(=O)c6nc5c4c3=C2O)NC(=O)/C(C)=C\C=C\[C@H](C)[C@H](O)[C@@H](C)[C@@H](O)[C@@H](C)[C@H](OC(C)=O)[C@@H]1C | - | - | TN792 | - | - | MIC | - | <1 µg/mL
CN(C)[C@@H]1C(=O)C(C(N)=O)=C(O)[C@@]2(O)C(=O)C3=C(O)c4c(O)cccc4[C@@](C)(O)[C@H]3C[C@@H]12 | - | BACTEC | H37Rv | 12.5 µg/mL | - | inhibition | - | 92%
CO/C(C)=C1/NC(=O)[C@H]([C@@H](C)O)NC(=O)c2csc(n2)-c2cc(O)c(-c3nc(C(=O)NCCCN4CCOCC4)cs3)nc2-c2csc(n2)[C@@H]2COC(=O)c3c4c5c(cccc5n3O)COC(=O)[C@@H](O[C@H]3C[C@](C)(O)[C@H](N(C)C)[C@H](C)O3)[C@@H](OC4)[C@H](NC(=O)c3csc1n3)c1nc(cs1)C(=O)N2 | - | broth dilution | Clinical isolate 10367 | - | - | MIC | - | ≤2.5 µM
CC1(C)CC2=C(SC3C=CC=CC3N2)C(=O)C1C(=O)C(N)=O | - | BACTEC | H37Rv | - | - | MIC bound | - | >12.5 µg/mL
O=C1CC(c2ccccc2)Oc2ccc(I)cc21 | - | - | H37Rv | 12.5 µg/mL | - | inhibition | - | 0%
CCCCCCCCCCC[C@@H]1CCC[C@H](C)N1 | - | BACTEC | H37Rv | - | VERO | MIC | - | 3.13 µg/mL
CCCCN(CCNC/C=C(\C)CCC=C(C)C)Cc1ccccc1 | - | - | - | - | - | MIC | - | 25 µM

A second listing of 4 rows from above:

smiles	changes	read by	strain or isolate	tested at	cell line	read-out	conditions	value
CC(=O)Nc1nnc(-c2coc3ccccc3c2=O)s1	-	BACTEC	H37Rv	-	-	MIC bound	-	>12.5 µg/mL
CC(C)N.CC(C)NC(=S)S	-	BACTEC	H37Rv	-	-	MIC bound	-	>12.5 µg/mL
CCCCCCCCCCCNCCNCc1ccc(OC)c(OC)c1	-	-	-	-	-	MIC	-	50 µM
NC(N)=NS(=O)(=O)c1ccc(N2C(=O)CC3(CCCC3)C2=O)cc1	-	BACTEC	H37Rv	12.5 µg/mL	-	inhibition	-	12%

Two numbers with a dash give a range or band. MIC bound: limit read from a one-dose screen. ECn: concentration that inhibits the pathogen or its effect by n%. Percent inhibition refers to the dose given; in toxicity tests it is the harm to the cells. Conditions beyond the fields shown may differ between rows.